Compound potency records, mixed from different reports. Data source: NIAID ChemDB in PubChem.

All rows: tests in culture; organism: Mycobacterium tuberculosis

MIC bound comes from a single tested concentration. Percent inhibition refers to the dose given; in toxicity tests it is the harm to the cells. Two numbers with a dash give a range or band. Rows are shuffled and stem from different studies. Blank or dashed fields: not listed here. MIC50, MIC90 and the like: level of inhibition, or share of isolates inhibited. ECn: concentration that inhibits the pathogen or its effect by n%.

smiles	strain	read by	dose	read-out	result
CCCCCCOc1ccccc1NC(=O)OCC[N+]1(CCC)CCCCC1	My 331/88			MIC	16 µM
COc1ccc(C2SC(C)C(=O)N2NC(=O)COc2ccc(NC(C)=O)cc2)cc1	H37Rv		12.5 µg/mL	inhibition	28%
CCCCCOc1ccccc1NC(=O)OCC[N+]1(CCC)CCCCC1	My 331/88			MIC	250 µM
COc1ccc(C2CC(=O)c3ccc(I)cc3O2)cc1	H37Rv		12.5 µg/mL	inhibition	0%
O=C(NNCN1C(=O)c2ccccc2C1=O)c1ccccc1	H37Rv	BACTEC		MIC bound	>12.5 µg/mL
c1cc2c(N3CCCCC3)cc(N3CCOCC3)nc2nc1N1CCCCC1	H37Rv	BACTEC	6.25 µg/mL	inhibition	43%
CSc1ccc(C(=O)CCC(=O)NC[C@H]2CN(c3ccc(N4CCOCC4)c(F)c3)C(=O)O2)cc1	10 clinical isolates resistant			MIC	0.5 µg/mL
COc1cc2c(c(OC)c1OC)C(=O)/C(=C/c1ccccc1)O2	H37Rv	BACTEC	12.5 µg/mL	inhibition	94%
CC1COc2c(N3CCN(C)CC3)c(F)cc3c(=O)c(C(=O)O)cn1c23	001-010 (drug-resistant)			MBC	1.5 µg/mL
CCOC(=O)c1cc(-c2ccc3cc(OC)ccc3c2)on1	H37Rv	low oxygen		MIC	13.2 µM
O=C1c2ccccc2OC(c2ccccc2)C1O				EC50	>12.5 µg/mL
CCOC(=O)c1cc(CNc2cc(F)cc(F)c2F)on1	H37Rv	resazurin		MIC	53.8 µM
CC1=C2C(=CO[C@H](C)[C@H]2C)C(=O)C(C(=O)O)=C1O	49		400 µg/mL	inhibition	77%
CC(=O)Nc1ccc(/C=N/NC(N)=S)cc1F	Erdman			MIC	0.2 µg/mL
CCN(CC)CC(O)CNc1ccc(C)c2sc3ccc(Cl)cc3c(=O)c12	H37Rv	BACTEC		MIC	≥12.5 µg/mL
NNC(=O)c1ccncc1	Isolate N			MIC	0.062 µg/mL
Cc1cc2c(C(C)C)c(O)c(O)c(C=O)c2c(O)c1-c1c(C)cc2c(C(C)C)c(O)c(O)c(C=O)c2c1O	H37Rv	BACTEC		MIC	≥12.8 µg/mL
CN(C)c1ccc(-c2cc(C(F)(F)F)nc3c(C(F)(F)F)cccc23)cc1				MIC	>128 µM
NC[C@H]1O[C@H](O[C@H]2[C@H](O)[C@@H](O[C@H]3O[C@H](CO)[C@@H](O)[C@H](N)[C@H]3O)[C@H](N)C[C@@H]2N)[C@H](O)[C@@H](O)[C@@H]1O	TN3806 (W1)			MIC	>256 µg/mL
NCC[C@H](O)C(=O)N[C@@H]1C[C@H](N)[C@@H](O[C@H]2O[C@H](CN)[C@@H](O)[C@H](O)[C@H]2O)[C@H](O)[C@H]1O[C@H]1O[C@H](CO)[C@@H](O)[C@H](N)[C@H]1O	92-0492 (MDR)			MIC	1 µg/mL
O=[n+]1c(Sc2ccccc2)c(CBr)n([O-])c2cc(F)c(F)cc21	H37Rv			MIC	>6.25 µg/mL
CO[C@H]1/C=C/O[C@@]2(C)Oc3c(C)c(O)c4c(=O)c(c5oc6cc(N7CCN(CC(C)C)CC7)cc(=O)c6nc5c4c3=C2O)NC(=O)/C(C)=C\C=C\[C@H](C)[C@H](O)[C@@H](C)[C@@H](O)[C@@H](C)[C@H](OC(C)=O)[C@@H]1C	16 strains (rifampicin-susceptible)			MIC90	12.5 µg/mL
CC(=O)Nc1ccc2c(Cl)cc(N3CCCCC3)nc2n1	H37Rv	BACTEC		EC50	>6.25 µg/mL
FC(F)(F)c1cc(NCc2cccnc2)c2cccc(C(F)(F)F)c2n1				MIC	>128 µM
CCOC(=O)c1cc(CNc2ccc(F)cc2F)on1	H37Rv	resazurin		MIC	10.9 µM
O=C(/C=C/c1cccc(Cl)c1)c1ccccc1O				EC50	<12.5 µg/mL
CCCCC(=O)Nc1ccc(S(=O)(=O)O)c(N=NC2C(=O)N(c3ccccc3)N=C2C)c1	H37Rv	BACTEC	12.8 µg/mL	inhibition	4%
CN[C@@H]1[C@H](O[C@H]2[C@H](O[C@H]3[C@H](O)[C@@H](O)[C@H](N=C(N)N)[C@@H](O)[C@@H]3N=C(N)N)O[C@@H](C)[C@]2(O)C=O)O[C@@H](CO)[C@H](O)[C@H]1O	MTB13 (INH-R)			MIC	1.25 µg/mL
CCCCCOc1ccccc1NC(=O)OCC[N+]1(CCCC)CCCCC1	My 331/88			MIC	62.5 µM
CC1COc2c(N3CCN(C)CC3)c(F)cc3c(=O)c(C(=O)O)cn1c23	900216			MIC	0.5 µg/mL
COc1ccc2c(c1)OC(c1ccc(Cl)cc1)CC2=O	H37Rv			EC50	>12.5 µg/mL
O=C(O)CN1CCN(CC(=O)N2CCN(C(=O)OCc3ccccc3)CC2)CCN(CC(=O)O)CCN(CC(=O)N2CCN(C(=O)OCc3ccccc3)CC2)CC1	H37Rv	resazurin		MIC bound	>6.25 µg/mL
NC[C@@H]1O[C@H](O[C@H]2[C@@H](O)[C@H](O[C@@H]3[C@@H](O)[C@H](N)C[C@H](N)[C@H]3O[C@H]3O[C@H](CO)[C@@H](O)[C@H](O)[C@H]3N)O[C@@H]2CO)[C@H](N)[C@@H](O)[C@@H]1O	MTB12 (PZA-R)			MIC	0.75 µg/mL
O/N=C\c1cc(C(F)(F)F)nc2c(C(F)(F)F)cccc12				MIC	>128 µM
CCCCCCCCCCC[N+]1(CCOC(=O)Nc2ccccc2OCCCCCC)CCCCC1	My 331/88			MIC	8 µM
CC[C@@H](C)N1CCN(c2cc(=O)c3nc4c(oc3c2)c2c(=O)c3c(O)c(C)c5c(c34)=C(O)[C@@](C)(O/C=C/[C@H](OC)[C@@H](C)[C@@H](OC(C)=O)[C@H](C)[C@H](O)[C@H](C)[C@@H](O)[C@@H](C)/C=C/C=C(/C)C(=O)N2)O5)CC1	16 strains (rifampicin-susceptible)			MIC90	1.56 µg/mL
O[C@@H](c1cc(C(F)(F)F)nc2c(C(F)(F)F)cccc12)[C@@H]1CCCCN1Cc1ccncc1				MIC	31 µM
CCOC(=O)c1cc(CNc2cccc3ccccc23)on1	H37Rv	resazurin		MIC	3.4 µM
O=[N+]([O-])c1cc(C(F)(F)F)cc2c1SC1=Nc3ccccc3CN12	H37Rv			MIC bound	>6.25 µg/mL
CCOC(=O)c1cc(CNc2ccccc2CC)on1	H37Rv	low oxygen		MIC	31 µM
COc1ccc2c3c1OC1C4(CCC5C(C2)N(CC2CC2)CCC351)OCCO4	H37Rv	BACTEC	12.5 µg/mL	inhibition	28%
C[C@H]1[C@H](C)CC[C@]2(C(=O)O)CC[C@]3(C)C(CC[C@@H]4[C@@]5(C)C[C@H](O)CC(C)(C)[C@@H]5CC[C@]43C)[C@H]12	H37Rv (ATCC 27294)	resazurin		MIC	25 µg/mL
O=C(/C=C/C(=O)c1ccccc1)NC[C@H]1CN(c2ccc(N3CCCCC3)c(F)c2)C(=O)O1	10 clinical isolates resistant			MIC	>16 µg/mL
CC(=O)Nc1ccc(/C=N/NC(N)=S)cc1Cl				MIC	<6.25 µg/mL
O=C(O)/C=C/c1ccccc1	90-0201 (DRUG-SUS)			MIC	100 µg/mL
CC1CC2Oc3ccc(Cl)cc3C(=O)N2O1	H37Rv	resazurin	6.25 µg/mL	inhibition	10%
CC(C)Cc1ccc(C(=O)CCC(=O)NC[C@H]2CN(c3ccc(N4CCOCC4)c(F)c3)C(=O)O2)cc1	ATCC 27294			MIC	5 µg/mL
Cc1nc(-[n+]2nc(-c3ccncc3)nn2-c2ccccc2)sc1C.[Br-]	H37Rv	BACTEC	12.5 µg/mL	inhibition	0%
Clc1cc(N2CCOCC2)nc2nc(N3CCCCC3)ccc12	H37Rv	BACTEC		EC50	>6.25 µg/mL
O=C(N=Nc1c(O)[nH]c2ccccc12)C(=O)Nc1cccc(C(F)(F)F)c1	H37Rv	BACTEC		MIC bound	>12.5 µg/mL
CC(=O)Nc1ccc(/C=N/NC(N)=S)c(F)c1				MIC	<6.25 µg/mL
COc1ccc(/C=C/C(=O)c2ccc(OC)cc2O)cc1	H37Rv		12.5 µg/mL	inhibition	32%
CC(=O)Nc1ccc(OCC(=O)NN2C(=O)C(C)SC2c2ccc(Cl)cc2)cc1	H37Rv		12.5 µg/mL	inhibition	0%
Fc1ccc(/C=C2/COCC3=C2NC(=S)NC3c2ccc(F)cc2)cc1	H37Rv	BACTEC	12.5 µg/mL	inhibition	0%
CC1COc2c(N3CCN(C)CC3)c(F)cc3c(=O)c(C(=O)O)cn1c23	90-0145 (DRUG-SUS)			MIC	0.5 µg/mL
CCOc1cc2c(cc1F)n([O-])c(C)c(S(=O)(=O)c1ccccc1)[n+]2=O	H37Rv		6.25 µg/mL	inhibition	100%
CCCCCCOc1ccccc1NC(=O)OCC[N+]1(CCCC)CCCCC1	My 331/88			MIC	16 µM
CO[C@H]1/C=C/O[C@@]2(C)Oc3c(C)c(O)c4c(O)c(c(/C=N/N5CCN(C)CC5)c(O)c4c3C2=O)NC(=O)/C(C)=C\C=C\[C@H](C)[C@H](O)[C@@H](C)[C@@H](O)[C@@H](C)[C@H](OC(C)=O)[C@@H]1C	92-0492 (MDR)			MIC	>32 µg/mL
O=C(/C=C/c1ccccn1)c1ccccn1	H37Rv			EC50	>12.5 µg/mL
CC(C)(C)c1ccc(C(=O)CCC(=O)NC[C@H]2CN(c3ccc(N4CCOCC4)c(F)c3)C(=O)O2)cc1	10 clinical isolates sensitive			MIC	1–2 µg/mL
NC(=O)c1cnccn1	Isolate 97-1006			MIC	900 µg/mL
O=C(Nc1ccc(Cl)cc1)N1CCCC[C@H]1[C@@H](O)c1cc(C(F)(F)F)nc2c(C(F)(F)F)cccc12				MIC	29 µM
CN(CCCC#CC(C)(C)C)c1cccc2c1CCC(=O)N2	H37Rv		6.25 µg/mL	inhibition	100%
O=c1ccc2c(N3CCOCC3)cc(N3CCOCC3)nc2[nH]1	H37Rv	BACTEC	6.25 µg/mL	inhibition	9%
C/C(=N/NC(=S)NCc1ccccc1)c1nccnc1C	H37Rv	BACTEC		MIC	3.13 µg/mL
CC(=O)Oc1ccc([C@@H]2CC(=O)c3c(cc(OC(C)=O)c(-c4c(OC(C)=O)cc5c(c4OC(C)=O)C(=O)C[C@@H](c4ccc(OC(C)=O)cc4)O5)c3OC(C)=O)O2)cc1				EC50	>12.5 µg/mL
Cc1c2cc[n+]([O-])cc2c(C)c2c1oc1ccccc12	H37Rv	resazurin		MIC	3.13 µg/mL
Cc1ccc2c(c1)[n+](=O)c(S(=O)(=O)c1ccccc1)c(C)n2[O-]	H37Rv			MIC	>6.25 µg/mL
CC(=O)Nc1ccc(S2=Nc3ccccc3S2)cc1	H37Rv	BACTEC	6.25 µg/mL	inhibition	0%
CC(=O)Nc1ccc(OCC(=O)NN2C(=O)C(C)SC2c2ccc(Cl)cc2Cl)cc1	H37Rv			EC50	>12.5 µg/mL
O=C(NCCO)C(=O)N/N=C/c1ccc([N+](=O)[O-])o1	H37Rv	BACTEC	12.5 µg/mL	inhibition	99%
NCCCNc1cc(C(F)(F)F)nc2c(C(F)(F)F)cccc12				MIC	>128 µM
O=[N+]([O-])c1cc(Cl)ccc1S(=O)(=O)c1ccc(Cl)c2c1NCCC2	H37Rv	resazurin	6.25 µg/mL	inhibition	19%
CCOC(=O)c1cc(CNc2ccc(OC)nc2)on1	H37Rv	resazurin		MIC	39.6 µM
COc1ccc(N=C2C(=Nc3ccc(OC)cc3)N(S(=O)(=O)c3ccccc3)C(=S)N2c2ccc(OC)cc2)cc1	H37Rv	BACTEC		MIC bound	>12.5 µg/mL
COc1ccc(/C=C/C(=O)c2ccccn2)cc1	H37Rv		12.5 µg/mL	inhibition	0%
O=C(Nc1ccc(Br)cc1)c1cnccn1	H37Rv			MIC	>12.5 µg/mL
CCOC(=O)c1cc(CNc2ccc(C(F)(F)F)cc2)on1	H37Rv	resazurin		MIC	6.5 µM
C#CC(C)(C)Oc1cc(O)c2c(=O)c3ccccc3n(C)c2c1	H37Rv	resazurin		MIC bound	>6.25 µg/mL
CC(=O)Nc1ccc(OCC(=O)NN2C(=O)CSC2c2cccc([N+](=O)[O-])c2)cc1	H37Rv			EC50	>12.5 µg/mL

The last 5 rows once more:

COc1ccc(/C=C/C(=O)c2ccccn2)cc1 ; strain: H37Rv ; dose: 12.5 µg/mL ; read-out: inhibition ; result: 0%
O=C(Nc1ccc(Br)cc1)c1cnccn1 ; strain: H37Rv ; read-out: MIC ; result: >12.5 µg/mL
CCOC(=O)c1cc(CNc2ccc(C(F)(F)F)cc2)on1 ; strain: H37Rv ; read by: resazurin ; read-out: MIC ; result: 6.5 µM
C#CC(C)(C)Oc1cc(O)c2c(=O)c3ccccc3n(C)c2c1 ; strain: H37Rv ; read by: resazurin ; read-out: MIC bound ; result: >6.25 µg/mL
CC(=O)Nc1ccc(OCC(=O)NN2C(=O)CSC2c2cccc([N+](=O)[O-])c2)cc1 ; strain: H37Rv ; read-out: EC50 ; result: >12.5 µg/mL